Pooled drug test results. Numbers come from NIAID ChemDB, via PubChem.

Shared fields: growth or infection tests

An empty or dashed field is not shown. A number after MIC or MFC names an inhibition level or a share of isolates. ECn is the concentration giving n% inhibition of infection, replication or growth. Percent inhibition refers to the dose given; in toxicity tests it is the harm to the cells. Conditions beyond the fields shown may differ between rows.

| compound | dose | organism | cells | strain | method | endpoint | value |
|---|---|---|---|---|---|---|---|
| O=c1[nH]c(=O)n([C@@H]2O[C@H](CO)[C@@H](O)[C@@H]2O)cc1/C=C/Cl | 0.01 µg/mL | Varicella zoster virus | HELF | KANNO | plaque count | inhibition | 100% |
| CCO/N=C/c1ccc(OCCC2CCN(c3ccc(Cl)nn3)CC2)cc1 |  | Rhinovirus | KB | Baylor 1 (ICAM-1 receptor group 45) | neutral red | EC50 | 0.258 µM |
| O=C(Nc1ccc2cc(S(=O)(=O)[O-])cc(S(=O)(=O)[O-])c2c1)c1ccccc1 | 5 µg/mL | Adenovirus | Human amnion AV3 cells | TYPE 3 | cytopathic effect | inhibition | 0% |
| Oc1ccccc1N=Cc1ccccc1 |  | Cryptococcus gattii |  | 29/10893 |  | MIC99 | 8 µg/mL |
| CCC(CC)[C@H](NC(C)=O)[C@@H]1[C@H](O)[C@@H](C(=O)O)C[C@H]1N=C(N)N |  | Influenza A virus | MDCK | Influenza A/Virginia/2/88R (H3N2) | visual reading | EC50 | <0.01 µM |
| Cc1cn([C@@H]2O[C@H](CO)[C@@H](O)[C@@H]2O)c(=O)[nH]c1=O | 0.01 µg/mL | Varicella zoster virus | HELF | HIRAI | plaque count | inhibition | 24% |
| CCOC(=O)/C=C/[C@H](C[C@@H]1CCNC1=O)NC(=O)[C@@H](CC(=O)[C@@H](NC(=O)c1cc(C)on1)C(C)C)Cc1ccc(F)cc1 |  | Rhinovirus | OHIO HELA-I | Isolate 17 | cytopathic effect / visual reading | EC50 | <0.01 µg/mL |
| Oc1cccc(C=Nc2ccccc2O)c1 |  | Cryptococcus gattii |  | 135L/03 |  | MIC99 | 8 µg/mL |
| O=S(=O)([O-])c1cc(NS(=O)(=O)c2ccccc2)c2c(S(=O)(=O)[O-])cc(S(=O)(=O)[O-])cc2c1 | 10 µg/mL | Herpes simplex virus | Human conjunctiva cells |  | cytopathic effect | inhibition | 50% |
| CCC(CC)[C@H](NC(C)=O)[C@@H]1[C@H](O)[C@@H](C(=O)O)C[C@H]1N=C(N)N |  | Influenza B virus | MDCK | Memphis/3/89 | plaque count | EC50 | 0.0084 µM |
| Nc1ccc2cc([N+](=O)[O-])cc(S(=O)(=O)[O-])c2c1 | 10 µg/mL | Adenovirus | Human amnion AV3 cells | TYPE 3 | cytopathic effect | inhibition | 0% |
| O=[N+]([O-])c1ccc(C=Nc2ccccc2O)cc1 |  | Cryptococcus neoformans |  | F-10 |  | MIC99 | 11.3 µg/mL |
| C=CCc1ccc(OC)c(OC)c1 |  | Candida tropicalis |  | 2480 | turbidity | MIC90 | 340 µg/mL |
| Nc1nc2c(ncn2COCCO)c(=O)[nH]1 | 0.1 µg/mL | Varicella zoster virus | HELF | KANNO | plaque count | inhibition | 11% |
| O=C(Nc1c(S(=O)(=O)[O-])cc2cc(S(=O)(=O)[O-])cc(O)c2c1O)c1ccccc1 | 10 µg/mL | Adenovirus | Human amnion AV3 cells | TYPE 3 | cytopathic effect | inhibition | 60% |
| Oc1ccccc1N=Cc1ccc2c(c1)OCO2 |  | Cryptococcus gattii |  | ATCC 32608 |  | MIC99 | 16 µg/mL |
| NCCS(=O)(=O)O | 50 µg/mL | Herpes simplex virus | Human amnion AV3 cells |  | cytopathic effect | inhibition | 0% |
| CCc1cn([C@@H]2O[C@H](CO)[C@@H](O)[C@@H]2O)c(=O)[nH]c1=O | 10 µg/mL | Varicella zoster virus | HELF | Ohtomo | plaque count | inhibition | 51% |
| O=S(=O)([O-])c1cc(O)c2ccccc2c1 | 5 µg/mL | Adenovirus | Human embryonic lung cells | TYPE 3 | cytopathic effect | inhibition | 0% |
| Oc1ccccc1N=Cc1cccc(O)c1O |  | Cryptococcus gattii |  | 196L/03 |  | MIC99 | 5.7 µg/mL |
| O=S(=O)([O-])c1ccc2c(NS(=O)(=O)c3ccccc3)cc(S(=O)(=O)[O-])cc2c1 | 10 µg/mL | Adenovirus | Human embryonic lung cells | TYPE 3 | cytopathic effect | inhibition | 10% |
| Cc1cn([C@@H]2O[C@H](CO)[C@@H](O)[C@@H]2F)c(=O)nc1N | 0.1 µg/mL | Varicella zoster virus | HELF | Ohtomo | plaque count | inhibition | 100% |

The first 2 rows once more:

compound	dose	organism	cells	strain	method	endpoint	value
O=c1[nH]c(=O)n([C@@H]2O[C@H](CO)[C@@H](O)[C@@H]2O)cc1/C=C/Cl	0.01 µg/mL	Varicella zoster virus	HELF	KANNO	plaque count	inhibition	100%
CCO/N=C/c1ccc(OCCC2CCN(c3ccc(Cl)nn3)CC2)cc1		Rhinovirus	KB	Baylor 1 (ICAM-1 receptor group 45)	neutral red	EC50	0.258 µM